Results of unrelated studies side by side (data: NIAID ChemDB).

All rows: growth or infection tests; organism: Aspergillus flavus; measure: MIC

Lines come from different laboratories, so protocols vary.

structure	strain or isolate	read by	result
C=C1CO[C@H]2[C@@H](C)OC(OC[C@@]34C[C@H]5[C@H](C)CC[C@@H]5[C@@]5(C=O)C[C@@H]3C=C(C(C)C)[C@@]45C(=O)O)C[C@@H]12	-	-	2–8 µg/mL
O=c1[nH][nH]c2c1C(c1ccccc1)CC(Cc1ccc3ccccc3c1)=C2	-	agar diffusion	100 µg/mL
CN1C(=O)/C(=c2/[nH][nH]c(=O)/c2=C\c2ccccc2)C(=O)c2ccccc21	ATCC 28542	-	50 µg/mL
OC(Cn1cncn1)(Cn1cncn1)c1ccc(F)cc1F	-	-	0.097 µg/mL
Cc1ccc(C2CC(Cc3ccc4ccccc4c3)=Cc3[nH][nH]c(=O)c32)cc1	-	agar diffusion	50 µg/mL
COc1cc(O)c(C(=O)O[C@@H]2C[C@]3(C)[C@H]4[C@@H](O)C(C)(C)C[C@@]4(O)C=C(C=O)[C@]23O)c(C)c1Cl	Plpa59	broth dilution	>250 µg/mL
COc1ccccc1/C=c1\c(=O)[nH][nH]\c1=C1/C(=O)c2ccccc2N(C)C1=O	ATCC 28542	-	>100 µg/mL
CC(C)Cc1ccc(CC2=Cc3[nH][nH]c(=O)c3C(c3ccc(F)cc3)C2)cc1	-	agar diffusion	12.5 µg/mL
CN1C(=O)/C(=c2/[nH][nH]c(=O)/c2=C\c2ccc(N)cc2)C(=O)c2ccccc21	ATCC 28542	-	>100 µg/mL
CC(C)=CCC[C@@H](C)CC=O	TISTR 3041	broth dilution	4050 µg/mL
O=c1[nH][nH]c2c1C(c1ccc(Cl)cc1)CC(Cc1ccc3ccccc3c1)=C2	-	agar diffusion	200 µg/mL
Nc1[nH]c(=O)ncc1F	KCCM 11899	-	0.8 µg/mL
Cn1c(=O)c(-c2[nH][nH]c(=O)c2/C=N/c2ccccn2)c(O)c2ccccc21	ATCC 28542	-	50 µg/mL
C[C@H]1[C@H](O)[C@@H](C)/C=C/C=C/C=C/C=C/C=C/C=C/C=C/[C@H](O[C@@H]2O[C@H](C)[C@@H](O)[C@H](N)[C@@H]2O)C[C@@H]2O[C@](O)(C[C@@H](O)C[C@@H](O)CC[C@H](O)[C@@H](O)C[C@@H](O)CC(=O)O[C@H]1C)C[C@H](O)[C@H]2C(=O)O	IAM 13835	-	0.39 µg/mL
C[C@@H](c1ncncc1F)[C@](O)(Cn1cncn1)c1ccc(F)cc1F	25	broth dilution	1 µg/mL
COC(=O)/C=C/c1ccc(OC)cc1	-	broth dilution / resazurin	62.5 µg/mL
Cc1ccc(N=Cc2c(-c3c(O)c4ccccc4n(C)c3=O)[nH][nH]c2=O)cc1	ATCC 28542	-	25 µg/mL
COc1cc(O)c(C(=O)O[C@@H]2C[C@@]3(C)C2=C(C=O)[C@@H](O)[C@@H]2CC(C)(C)C[C@@H]23)c(C)c1Cl	Plpa59	broth dilution	>250 µg/mL
COc1cccc(/C=c2\c(=O)[nH][nH]\c2=C2/C(=O)c3ccccc3N(C)C2=O)c1	ATCC 28542	-	>100 µg/mL
Cc1nc2c(CN)c(-c3ccc(C)o3)c(CN)c(=O)n2[nH]1	-	-	25 µg/mL

The first 3 rows once more:

structure,strain or isolate,read by,result
C=C1CO[C@H]2[C@@H](C)OC(OC[C@@]34C[C@H]5[C@H](C)CC[C@@H]5[C@@]5(C=O)C[C@@H]3C=C(C(C)C)[C@@]45C(=O)O)C[C@@H]12,-,-,2–8 µg/mL
O=c1[nH][nH]c2c1C(c1ccccc1)CC(Cc1ccc3ccccc3c1)=C2,-,agar diffusion,100 µg/mL
CN1C(=O)/C(=c2/[nH][nH]c(=O)/c2=C\c2ccccc2)C(=O)c2ccccc21,ATCC 28542,-,50 µg/mL

a–b is a range or a potency band. An empty or dashed field is not shown.